From patent US20250283886

System: MetTyr

P. falciparum M1 aminopeptidase
HPLC Assay Conv; 1 mM peptide, 1 mM enzyme, 30 C/1 hr: 7%
